Source: patent publication US4794170A (priority 1984, dated 1988)
Values joined by “and” are separate entries in the source; they are usually repeats but may differ in a detail not shown here. Identical values can stand only once.

Experiments:
[1] = mouse, in vivo, iv
[2] = tested on: receptors of the hepatocytes specific for the proteins ending with the galactose; experiment: Disappearance from plasma of [14C]asialofetuine (AF) in the mouse; type: in vivo, mice (female Swiss); conditions: in words; conjugate vs equal amount of non conjugated L31 HSA
[3] = Solubility and molar ratio after lyophilization and storage; type: physicochemical; conditions: 0°-4° C. or room temperature; at least up to 4 months (maximum time tested)
[4] = tested on: Ectromelia virus; set-up: species or system mice; conditions: mouse, in vivo

## conjugate 1: conjugate of ara-AMP with L31-HSA, ECDI, pH 7.5, 25° C., 24 hours, molar ratio 14
[1]
  maximum tested dose relative to the dose used for treatment of Ectromelia hepatitis: 40-50 times
[2]
  inhibition of the disappearance of radioactive asialofetuine from plasma: competitively inhibited at the same rate
[3]
  solubility on storage: do not decrease
[4]
  Inhibition of the DNA synthesis % liver: 32% and 41%
  synthesis of DNA in the liver: inhibits the synthesis of DNA in the liver
